# Results as given in PubChem BioAssay AID720706 (Broad Institute, 2013).
# Only a part is listed here, and it is no random draw. Calls of active or inactive are those of the source.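 How the source made its calls: active means significant combined selectivity score with lowered wild-type GFP, culture density cut under 30%, mutant RFP and density less affected; inactive means any of these conditions unmet.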
# Test: reduced GFP signal of wild-type E. coli, primary screen, bacterial rRNA inhibitor project, GFP/RFP fluorescence, OD600, single point (AID 720706)
# Settings: E. coli WT GFP vs humanized-ribosome RFP mutants, 24 h, stronger effect = lower value, DMSO median 0, no signal -100
row,SMILES,GFP signal change (wild-type ribosome)
1,CN(C(=O)Cc1ccc(Cl)c(Cl)c1)C1CCCC[C@@H]1N1CCCC1 (some centres undefined),inactive: 6.48%
2,CCC1=CC2Cc3nc4ccc(Cl)cc4c(N)c3C(C1)C2 (centres undefined),inactive: -52%
3,O=C(O)C(O)c1ccc(N(CCCl)CCCl)cc1.c1ccncc1 (centres undefined),inactive: 7.74%
4,O=[N+]([O-])c1cc([N+](=O)[O-])c(-n2nnc3ccccc32)c([N+](=O)[O-])c1,inactive: 17.2%
5,CCOP(=O)(NC(=NC(C)c1ccccc1)NC(C)c1ccccc1)OCC (centres undefined),inactive: 1.74%
6,Nc1ccc(CCCCOc2ccccc2)cc1.O=[N+]([O-])c1cc([N+](=O)[O-])c(O)c([N+](=O)[O-])c1,inactive: -17.1%
7,CCOP(=O)(Nc1ccc(C)cn1)OCC,inactive: 9.69%
8,O=P1(N(CCCl)CCCl)NCCC(C(F)(F)F)O1 (centres undefined),inactive: 5.15%
9,CN(Cc1cccnc1)C(=O)COc1ccc(Cl)c(Cl)c1.O=[N+]([O-])c1cc([N+](=O)[O-])c(O)c([N+](=O)[O-])c1,inactive: -10.9%
10,CC(C)(C)C(=O)NC(Sc1ncccn1)C(Cl)(Cl)Cl (centres undefined),inactive: 3.54%
11,Cc1cc(C)cc(OP(C)(=O)Nc2ccccn2)c1 (centres undefined),inactive: -1.2%
12,CP(=O)(Nc1cccc(Br)c1)Oc1ccccc1 (centres undefined),inactive: -30%
13,Cc1ccc(NCCc2c([N+](=O)[O-])cc([N+](=O)[O-])cc2[N+](=O)[O-])cc1,inactive: -0.0698%
14,Nc1cccc2c([As](=O)(O)O)cccc12,inactive: 28.1%
15,CCCOP(=S)(Nc1nc(N)cc(=O)[nH]1)OCCC,inactive: -0.267%
16,CCOP(=O)(Nc1cccc2ccccc12)OCC,inactive: 4.42%
17,O=C(OC1CN2CCC1CC2)c1ccc(Cl)cc1 (centres undefined),inactive: 1.89%

row,SMILES,GFP signal change (wild-type ribosome)
1,O=[As](O)(O)c1cccnc1,inactive: 8.71%
2,COc1cc(C(=O)NCC2(N3CCOCC3)CCCCC2)cc(Cl)c1OC(C)C,inactive: -26.6%
3,COc1ccccc1OP(C)(=O)Nc1cccc(Br)c1 (centres undefined),inactive: -6.5%
4,CS(=O)(=O)c1ccc(Cl)c(NC(=O)COC(=O)C(O)(c2ccccc2)c2ccccc2)c1,inactive: -4.85%
5,O=[As](O)(c1cccc(O)c1)c1cccc(O)c1,inactive: 7.68%
6,Cc1cc(C)cc(OP(C)(=O)Nc2ccc(C)cc2C)c1 (centres undefined),inactive: -0.305%
7,CCOC(=O)c1ccc(NP(C)(=O)Oc2cc(C)cc(C)c2)cc1 (centres undefined),inactive: 4.71%
8,NC(=O)Nc1ccc([As](=O)(O)O)cc1,inactive: 24.4%
9,N#CCCN(C(=O)COC(=O)C(O)(c1ccccc1)c1ccccc1)c1ccc(F)cc1,inactive: 5.28%
10,CCOP1(=S)c2c(C)nn(CCC#N)c2N=C(c2ccc(F)cc2)N1C (centres undefined),inactive: 4.8%
11,CN(C)C(=O)c1cc([N+](=O)[O-])cc2c1-c1c(cc([N+](=O)[O-])cc1[N+](=O)[O-])C2=O,inactive: 14.5%
12,CN(C(=O)Cc1ccc(Cl)c(Cl)c1)[C@H]1CC[C@@]2(CCCO2)C[C@@H]1N1CCCC1,inactive: 5.79%
13,CCOP1(=S)c2c(C)nn(CCC#N)c2N=C(c2ccccc2F)N1C (centres undefined),inactive: 1.51%
14,O=C(O)c1cccc(Nc2c([N+](=O)[O-])cc([N+](=O)[O-])cc2[N+](=O)[O-])c1,inactive: 2.4%
15,O=P(Nc1nccs1)(Oc1ccccc1)Oc1ccccc1,inactive: -5.67%
16,Nc1ccccc1[As](=O)(O)c1ccccc1,inactive: 9.01%
17,O=C(O)COc1ccc([As](=O)(O)O)cc1[N+](=O)[O-],inactive: 7.25%
